Laboratory results taken from patent US12427200B2, “Compositions and methods for the treatment of viral infections” (priority 2019, dated 2025).

Key:
lung cytokines [1] = assay: Study #58: lung cytokine levels day 4; assay type: in vivo, BALB/c mice; settings: day 4 post-infection; 15 mg/kg PO, BID × 4
lung cytokines [2] = assay: Study #55: lung cytokine levels day 4; assay type: in vivo, BALB/c mice; settings: day 4 post-infection; 15 mg/kg PO, BID × 4
[3] = system: A/California/07/2009 H1N1 pdm; settings: baloxavir 4 nM, oseltamivir 200 nM
[4] = system: A/California/04/09/H1N1 pdm; assay: Serial passage for selection of resistant virus, A549 cells; settings: baloxavir 0.5 nM, oseltamivir 200 nM
A/WSN/1933 H1N1 = assay: Serial passage for selection of resistant virus, MDCK cells; settings: baloxavir 4 nM, oseltamivir 50 nM
[5] = molecular target: H3N2 WT and E119V mutant neuraminidase (UniProt Q91MA2); settings: read-out: H3N2 WT IC50; H3N2 WT
[6] = molecular target: H3N2 WT and E119V mutant neuraminidase (UniProt Q91MA2, E119V, species not given); settings: read-out: H3N2 E119V IC50; H3N2 E119V mutant
[7] = molecular target: neuraminidase resistant mutants (lysates) (UniProt Q91MA2)
[8] = molecular target: neuraminidase resistant mutants (lysates) (UniProt Q91MA2, E119V, species not given)
[9] = molecular target: neuraminidase resistant mutants (lysates) (UniProt Q91MA2, R292K, species not given)

Compound	IC50 [5] [nM]	IC50 [6] [nM]	further results
baloxavir	–	–	IL-6 fold-change as compared to uninfected control (lung cytokines [1]): 0.99 fold-change; KC fold-change as compared to uninfected control (lung cytokines [1]): 0.88 fold-change; MCP-1 fold-change as compared to uninfected control (lung cytokines [1]): 0.80 fold-change; MIP-1α fold-change as compared to uninfected control (lung cytokines [1]): 1.04 fold-change; TNF-α fold-change as compared to uninfected control (lung cytokines [1]): 1.07 fold-change; IL-6 fold-change as compared to uninfected control (lung cytokines [2]): 1.05 fold-change; INF-γ fold-change as compared to uninfected control (lung cytokines [2]): 0.94 fold-change; KC fold-change as compared to uninfected control (lung cytokines [2]): 0.85 fold-change; MCP-1 fold-change as compared to uninfected control (lung cytokines [2]): 1.53 fold-change; MIP-1α fold-change as compared to uninfected control (lung cytokines [2]): 0.97 fold-change; TNF-α fold-change as compared to uninfected control (lung cytokines [2]): 1.12 fold-change; Passage after which titers reached PBS control levels [3]: 6 passages; Passage after which titers reached PBS control levels [4]: 5 passages; Passage after which titers reached PBS control levels (A/WSN/1933 H1N1): 5 passages
C#CCOCCOCCOCCOCCNC(=O)CO[C@@H]([C@@H]1OC(C(=O)O)=C[C@H](NC(=N)N)[C@H]1NC(C)=O)[C@H](O)CO	13.2	23.2	–
C#CCOCCOCCOCCOCCC(=O)N(CCCCNC(=O)O[C@@H]([C@@H]1OC(C(=O)O)=C[C@H](NC(=N)N)[C@H]1NC(C)=O)[C@H](O)CO)CCOCCNC(=O)O[C@@H]([C@@H]1OC(C(=O)O)=C[C@H](NC(=N)N)[C@H]1NC(C)=O)[C@H](O)CO	33.6	174	–
C#CCOCCOCCOCCOCCC(=O)N(CCOCCNC(=O)OC[C@@H](O)[C@@H](O)[C@@H]1OC(C(=O)O)=C[C@H](NC(=N)N)[C@H]1NC(C)=O)CCOCCNC(=O)OC[C@@H](O)[C@@H](O)[C@@H]1OC(C(=O)O)=C[C@H](NC(=N)N)[C@H]1NC(C)=O	4430	14000	–
C#CCOCCOCCOCCOCCNC(=O)CO[C@@H]([C@@H]1OC(C(=O)O)=C[C@H](NC(=N)N)[C@H]1NC(C)=O)[C@H](O)CNC(=O)C1CC1	95.7	529	–
C#CCOCCOCCOCCOCCC(=O)N(CCOCCNC(=O)O[C@@H]([C@@H]1OC(C(=O)O)=C[C@H](NC(=N)N)[C@H]1NC(C)=O)[C@H](O)CO)CCOCCNC(=O)O[C@@H]([C@@H]1OC(C(=O)O)=C[C@H](NC(=N)N)[C@H]1NC(C)=O)[C@H](O)CO	33.6	186	IC50 [7]: 21.1 nM; IC50 [8]: 679 nM; IC50 [9]: 994 nM
C#CCOCCOCCOCCOCCC(=O)N(CCOCCNC(=O)O[C@@H]([C@@H]1OC(C(=O)O)=C[C@H](NC(=N)N)[C@H]1NC(C)=O)[C@H](O)CO)CCOCCOCCNC(=O)O[C@@H]([C@@H]1OC(C(=O)O)=C[C@H](NC(=N)N)[C@H]1NC(C)=O)[C@H](O)CO	33	166	–
CCOC(=O)C1=C[C@@H](OC(CC)CC)[C@H](NC(C)=O)[C@@H](N)C1	–	–	Passage after which titers reached PBS control levels [3]: 8 passages; Passage after which titers reached PBS control levels [4]: 11 passages; Passage after which titers reached PBS control levels (A/WSN/1933 H1N1): 10 passages
C#CCOCCOCCOCCOCCN(C)C(=O)O[C@@H]([C@H]1OC(C(=O)O)=C[C@@H](NC(=N)N)[C@@H]1NC(C)=O)[C@H](O)CO	81	629	–
C#CCOCCOCCOCCOCCNC(=O)O[C@@H]([C@@H]1OC(C(=O)O)=C[C@H](NC(=N)N)[C@H]1NC(C)=O)[C@H](O)CO	32.9	147	–
C#CCOCCOCCOCCOCCC(=O)N(CCCCCCNC(=O)O[C@@H]([C@@H]1OC(C(=O)O)=C[C@H](NC(=N)N)[C@H]1NC(C)=O)[C@H](O)CO)CCOCCNC(=O)O[C@@H]([C@@H]1OC(C(=O)O)=C[C@H](NC(=N)N)[C@H]1NC(C)=O)[C@H](O)CO	32.9	158	–
C#CCOCCOCCOCCOCCC(=O)N(CCOCCOCCOCCNC(=O)O[C@@H]([C@@H]1OC(C(=O)O)=C[C@H](NC(=N)N)[C@H]1NC(C)=O)[C@H](O)CO)CCOCCOCCOCCNC(=O)O[C@@H]([C@@H]1OC(C(=O)O)=C[C@H](NC(=N)N)[C@H]1NC(C)=O)[C@H](O)CO	31.2	108	–
C#CCOCCOCCOCCOCCC(=O)N(CCCCNC(=O)O[C@@H]([C@@H]1OC(C(=O)O)=C[C@H](NC(=N)N)[C@H]1NC(C)=O)[C@H](O)CO)CCOCCOCCNC(=O)O[C@@H]([C@@H]1OC(C(=O)O)=C[C@H](NC(=N)N)[C@H]1NC(C)=O)[C@H](O)CO	34.5	164	–
